Pooled drug test results. Numbers come from NIAID ChemDB, via PubChem.

Common to all: tests in culture; organism: Cryptosporidium parvum; read-out: inhibition

Inhibition is in % at the dose shown (toxicity tests: loss of growth or viability). Blank or dashed fields: not listed here. Conditions beyond the fields shown may differ between rows.

SMILES | strain | cells | read by | tested at | value
CC[C@@]1([C@@H]2O[C@@H]([C@H]3O[C@@](O)(CO)[C@H](C)C[C@@H]3C)C[C@@H]2C)CC[C@H]([C@]2(C)CC[C@]3(C[C@H](O)[C@@H](C)[C@@H]([C@@H](C)[C@@H](OC)[C@H](C)C(=O)O)O3)O2)O1 | - | HCT-8 | - | 1 µM | 100%
CC(=O)N[C@@H](CC(C)C)C(=O)N[C@@H](CC(C)C)C(=O)N[C@H](C=O)CCCN=C(N)N | - | - | cell count / microscopy | 10 µg/mL | 35.2%
Cc1ccc(C(=O)Nc2ccc(S(=O)(=O)O)c3cc(S(=O)(=O)O)cc(S(=O)(=O)O)c23)cc1NC(=O)c1cccc(NC(=O)Nc2cccc(C(=O)Nc3cc(C(=O)Nc4ccc(S(=O)(=O)O)c5cc(S(=O)(=O)O)cc(S(=O)(=O)O)c45)ccc3C)c2)c1 | - | HCT-8 | - | 1 µM | 33%
Nc1ccc(S(=O)(=O)Nc2cnc3ccccc3n2)cc1 | Human isolate | L929 | - | 0.8 µg/mL | 79.49%
Nc1ncnc2c1ncn2[C@@H]1O[C@H](CO)[C@@H](O)[C@@H]1O | - | - | - | 100 µg/mL | 5%
CO[C@@H]1[C@@H](OC)[C@H](C)[C@@](O)(CC(=O)O)O[C@H]1[C@H](C)[C@H]1O[C@@]2(CC[C@@](C)([C@H]3CC[C@@](C)([C@@H]4O[C@@H]([C@H]5O[C@](C)(O)[C@H](C)C[C@@H]5C)C[C@@H]4O[C@@H]4C[C@H](OC)[C@@H](OC)[C@H](C)O4)O3)O2)C[C@H](O)[C@H]1C | - | - | - | 0.5 µg/mL | 100%
CC(=O)N[C@@H](CC(C)C)C(=O)N[C@@H](CC(C)C)C(=O)N[C@H](C=O)CCCN=C(N)N | - | - | - | 10 µg/mL | 35.2%
O=C(O)c1cc([N+](=O)[O-])c(N2CCOCC2)c([N+](=O)[O-])c1 | - | MDCK cells | ELISA / luminescence | 10 µM | 0%
CN[C@@H]1[C@@H](O)[C@@H](O[C@@H]2[C@@H](O)[C@H](O[C@H]3O[C@H]([C@@H](C)O)[C@@H](O)[C@H](O)[C@H]3N)[C@@H](N)C[C@H]2N)OC[C@]1(C)O | - | APH-CACO-2 | - | 1000 µg/mL | 60%
NC[C@@H]1O[C@H](O[C@H]2[C@@H](O)[C@H](O[C@@H]3[C@@H](O)[C@H](N)C[C@H](N)[C@H]3O[C@H]3O[C@H](CO)[C@@H](O)[C@H](O)[C@H]3N)O[C@@H]2CO)[C@H](N)[C@@H](O)[C@@H]1O | - | HT29.74 | - | 1000 µg/mL | 95%
NC[C@@H]1O[C@H](O[C@H]2[C@@H](O)[C@H](O[C@@H]3[C@@H](O)[C@H](N)C[C@H](N)[C@H]3O[C@H]3O[C@H](CO)[C@@H](O)[C@H](O)[C@H]3N)O[C@@H]2CO)[C@H](N)[C@@H](O)[C@@H]1O | - | Caco2 | - | 100 µM | 55%
CCCN(CCC)c1c([N+](=O)[O-])cc(C(F)(F)F)cc1[N+](=O)[O-] | - | HCT-8 | - | 1 µM | 100%
CC(C)CN(C[C@@H](O)[C@H](Cc1ccccc1)NC(=O)O[C@H]1CCOC1)S(=O)(=O)c1ccc(N)cc1 | - | HCT-8 | - | 25 µg/mL | 5%
CC[C@H]1OC(=O)[C@H](C)[C@@H](O[C@H]2C[C@@](C)(OC)[C@@H](O)[C@H](C)O2)[C@H](C)[C@@H](O[C@@H]2O[C@H](C)C[C@H](N(C)C)[C@H]2O)[C@](C)(O)C[C@@H](C)CN(C)[C@H](C)[C@@H](O)[C@]1(C)O | - | - | cell count | 5 µM | 8.6%
CCCCCCCCCCOc1cc2c(=O)c(C(=O)OCC)c[nH]c2cc1OCC | - | - | - | 50 µM | 0%
CO[C@H]1/C=C/O[C@@]2(C)Oc3c(C)c(O)c4c(O)c(c5c(c4c3C2=O)NC2(CCN(CC(C)C)CC2)N=5)=NC(=O)/C(C)=C\C=C\[C@H](C)[C@H](O)[C@@H](C)[C@@H](O)[C@@H](C)[C@H](OC(C)=O)[C@@H]1C | - | - | cell count | 5 µM | 11.6%
O=c1[nH]c(=O)n([C@H]2C[C@H](O)[C@@H](CO)O2)cc1/C=C/Br | - | - | - | 100 µg/mL | 10%

A second listing of 2 rows from above:

{"SMILES": "O=C(O)c1cc([N+](=O)[O-])c(N2CCOCC2)c([N+](=O)[O-])c1", "cells": "MDCK cells", "read by": "ELISA / luminescence", "tested at": "10 µM", "value": "0%"}
{"SMILES": "Nc1ncnc2c1ncn2[C@@H]1O[C@H](CO)[C@@H](O)[C@@H]1O", "tested at": "100 µg/mL", "value": "5%"}